Test results published in patent US20250283886.

What was measured:
[1] = target: T1, FPFPFP{LYSN3}NH2
T1 chain: FPFPFPX

[2] = target: T2, YPYPYP{LYSN3}NH2
T2 chain: YPYPYPX

[3] = target: T3, FFPFFP{LYSN3}NH2
T3 chain: FFPFFPX

[4] = target: T4, FWPLPWPDDDY{LYSN3}NH2
T4 chain: FWPLPWPDDDYK

B1: yPIP-Q24-Cy3B (protein)
chain: MTQQEYQNRRQALLAKMAPGSAAIIFAAPEATRSADSEYPYRQNSDFSYLTGFNEPEAVLILVKSDETHNHSVLFNRIRDLTAEIWFGRRLGQEAAPTKLAVDRALPFDEINEQLYLLLNRLDVIYHAQGQYAYADNIVFAALEKLRHGFRKNLRAPATLTDWRPWLHEMRLFKSAEEIAVLRRAGEISALAHTRAMEKCRPGMFEYQLEGEILHEFTRHGARYPAYNTIVGGGENGCILHYTENECELRDGDLVLIDAGCEYRGYAGDITRTFPVNGKFTPAQRAVYDIVLAAINKSLTLFRPGTSIREVTEEVVRIMVVGLVELGILKGDIEQLIAEQAHRPFFMHGLSHWLGMDVHDVGDYGSSDRGRILEPGMVLTVEPGLYIAPDADVPPQYRGIGIRIEDDIVITATGNENLTASVVKDPDDIEALMALNHAGENLYFQE
HPLC Assay Conv; 1 mM Peptide, 2.1 uM Enzyme, 37 C/0.5 hr [1]: 100%

B2: yPIP-Q24Dark (protein)
chain: MTQQEYQNRRQALLAKMAPGSAAIIFAAPEATRSADSEYPYRQNSDFSYLTGFNEPEAVLILVKSDETHNHSVLFNRIRDLTAEIWFGRRLGQEAAPTKLAVDRALPFDEINEQLYLLLNRLDVIYHAQGQYAYADNIVFAALEKLRHGFRKNLRAPATLTDWRPWLHEMRLFKSAEEIAVLRRAGEISALAHTRAMEKCRPGMFEYQLEGEILHEFTRHGARYPAYNTIVGGGENGCILHYTENECELRDGDLVLIDAGCEYRGYAGDITRTFPVNGKFTPAQRAVYDIVLAAINKSLTLFRPGTSIREVTEEVVRIMVVGLVELGILKGDIEQLIAEQAHRPFFMHGLSHWLGMDVHDVGDYGSSDRGRILEPGMVLTVEPGLYIAPDADVPPQYRGIGIRIEDDIVITATGNENLTASVVKDPDDIEALMALNHAGENLYFQE
HPLC Assay Conv; 1 mM Peptide, ~5 uM Enzyme, 37 C/0.5 hr [2]: <15%

B3: Cy3B-taqAPT 2nd peak (protein)
chain: MDAFTENLNKLAELAIRVGLNLEEGQEIVATAPIEAVDFVRLLAEKAYENGASLFTVLYGDNLIARKRLALVPEAHLDRAPAWLYEGMAKAFHEGAARLAVSGNDPKALEGLPPERVGRAQQAQSRAYRPTLSAITEFVTNWTIVPFAHPGWAKAVFPGLPEEEAVQRLWQAIFQATRVDQEDPVAAWEAHNRVLHAKVAFLNEKRFHALHFQGPGTDLTVGLAEGHLWQGGATPTKKGRLCNPNLPTEEVFTAPHRERVEGVVRASRPLALSGQLVEGLWARFEGGVAVEVGAEKGEEVLKKLLDTDEGARRLGEVALVPADNPIAKTGLVFFDTLFDENAASHIAFGQAYAENLEGRPSGEEFRRRGGNESMVHVDWMIGSEEVDVDGLLEDGTRVPLMRRGRWVI
HPLC Assay Conv; 1 mM Peptide, 20 uM Enzyme, 37 C/0.5 hr [3]: 100%

B4: Cy3B-taqAPT 4th peak (protein)
chain: MDAFTENLNKLAELAIRVGLNLEEGQEIVATAPIEAVDFVRLLAEKAYENGASLFTVLYGDNLIARKRLALVPEAHLDRAPAWLYEGMAKAFHEGAARLAVSGNDPKALEGLPPERVGRAQQAQSRAYRPTLSAITEFVTNWTIVPFAHPGWAKAVFPGLPEEEAVQRLWQAIFQATRVDQEDPVAAWEAHNRVLHAKVAFLNEKRFHALHFQGPGTDLTVGLAEGHLWQGGATPTKKGRLCNPNLPTEEVFTAPHRERVEGVVRASRPLALSGQLVEGLWARFEGGVAVEVGAEKGEEVLKKLLDTDEGARRLGEVALVPADNPIAKTGLVFFDTLFDENAASHIAFGQAYAENLEGRPSGEEFRRRGGNESMVHVDWMIGSEEVDVDGLLEDGTRVPLMRRGRWVI
HPLC Assay Conv; 1 mM Peptide, 20 uM Enzyme, 37 C/0.5 hr [3]: 100%

B5: VPr pAzF (protein)
chain: MPPITQQATVTAWLPQVDASQITGTISSLESFTNRFYTTTSGAQASDWIASEWQALSASLPNASVKQVSHSGYNQKSVVMTITGSEAPDEWIVIGGHLDSTIGSHTNEQSVAPGADDDASGIAAVTEVIRVLSENNFQPKRSIAFMAYAAEEVGLRGSQDLANQYKSEGKNVVSALQLDMTNYKGSAQDVVFITDYTDSNFTQYLTQLMDEYLPSLTYGFDTCGYACSDHASWHNAGYPAAMPFESKFNDYNPRIHTTQDTLANSDPTGSHAKKFTQLGLAYAIEMGSATGDTPTPGNQ
HPLC Assay Conv; 200 uM Peptide, 4 uM enzyme, 37 C/1 hr [4]: 96%
